A mixed list of measured activities; the numbers were collected in NIAID ChemDB.

Shared fields: tests in culture; agent: HIV-1; read by: p24 / ELISA; read-out: EC50

Two numbers with a dash give a range or band. Blank or dashed fields: not listed here. ECn: concentration that inhibits the pathogen or its effect by n%. Conditions beyond the fields shown may differ between rows.

CCCCCCCCCCCCCCCCCCOCCOP(=O)(O)CO[C@H](CO)Cn1cnc2c(=O)[nH]c(N)nc21 ; strain: LAI ; cell line: PBMC ; value: 0.003 µM
CCCCCCCCCCCCCC(=O)O[C@@H]1[C@@H](C)[C@@]2(O)[C@@H](C=C(COC(C)=O)C[C@]3(O)C(=O)C(C)=C[C@@H]23)[C@@H]2C(C)(C)[C@]12O ; strain: IIIB ; cell line: C8166 ; value: 4.415 µM
CC(C)[C@@H](CN[C@]12CC[C@@H](C3(C)CC3)[C@@H]1[C@H]1CC[C@@H]3[C@@]4(C)CC[C@H](OC(=O)[C@H]5C[C@@H](C(=O)O)C5(C)C)C(C)(C)[C@@H]4CC[C@@]3(C)[C@]1(C)CC2)N1CCS(=O)(=O)CC1 ; strain: NL4-3 ; cell line: MT-4 ; changes: V7A ; value: <0.05 µM
CC(C)C1=C2[C@H]3CC[C@@H]4[C@@]5(C)CC[C@H](OC(=O)[C@H]6C[C@@H](C(=O)O)C6(C)C)C(C)(C)[C@@H]5CC[C@@]4(C)[C@]3(C)CC[C@@]2([C@@H](O)CNC(=O)C(CCCCN)NC(=O)c2ccc(Cl)cc2)CC1=O ; strain: 92HT599 ; cell line: MT-2 ; value: <1 µM
CC(=O)O[C@@]12[C@H](OC(=O)CCCCC3SCC4NC(=O)NC43)[C@@H](C)[C@@]3(O)[C@@H](C=C(CO)C[C@]4(O)C(=O)C(C)=C[C@@H]34)[C@@H]1C2(C)C ; strain: IIIB ; cell line: C8166 ; value: >200 µM
CCCCCCCCCCCCCCCCCCOCCOP(=O)(O)CO[C@H](CO)Cn1cnc2c(N)nc(N)nc21 ; strain: NRTI-MDR ; cell line: PBMC ; changes: V75I F77L F116Y Q151M ; value: 0.016 µM
CCC1=C(C(=O)N(C)OC)C(c2cccc(O)c2)NC(=O)N1 ; cell line: CEM ; value: >5 µM
CC(C)C1=C2[C@H]3CC[C@@H]4[C@@]5(C)CC[C@H](OC(=O)[C@H]6C[C@@H](C(=O)O)C6(C)C)C(C)(C)[C@@H]5CC[C@@]4(C)[C@]3(C)CC[C@@]2(CC(=O)NCC(C)(C)NC(=O)c2ccc(Cl)cc2O[C@H]2CCOC2)CC1=O ; strain: 92HT599 ; cell line: MT-2 ; value: <1 µM
CCCC(=O)O[C@@]12[C@H](OC(=O)/C=C/c3ccccc3)[C@@H](C)[C@@]3(O)[C@@H](C=C(COC(=O)/C=C/c4ccccc4)C[C@]4(O)C(=O)C(C)=C[C@@H]34)[C@@H]1C2(C)C ; strain: IIIB ; cell line: C8166 ; value: 0.4696 µM
Cc1cn([C@H]2C[C@H](N=[N+]=[N-])[C@@H](CO)O2)c(=O)[nH]c1=O ; strain: NL4-3 ; cell line: C8166 ; value: 0.00075 µM
CC(C)C1=C2[C@H]3CC[C@@H]4[C@@]5(C)CC[C@H](OC(=O)[C@H]6C[C@@H](C(=O)O)C6(C)C)C(C)(C)[C@@H]5CC[C@@]4(C)[C@]3(C)CC[C@@]2(NC(=O)C(C)(C)NC(=O)c2nc3ccccc3[nH]2)CC1=O ; strain: 92HT599 ; cell line: MT-2 ; value: <0.003 µM
CC(C)C1=C2[C@H]3CC[C@@H]4[C@@]5(C)CC[C@H](OC(=O)[C@H]6C[C@@H](C(=O)O)C6(C)C)C(C)(C)[C@@H]5CC[C@@]4(C)[C@]3(C)CC[C@@]2([C@@H](O)CNC(=O)C(C)(C)NC(=O)c2ccncc2)CC1=O ; strain: 92HT599 ; cell line: MT-2 ; value: <1 µM
CCCCCCCCCCCCCCCCCCOCCOP(=O)(O)CO[C@H](CO)Cn1cnc2c(N)ncnc21 ; strain: LAI ; cell line: PBMC ; value: 0.01 µM
C=C(C)[C@@H]1CC[C@]2(NC[C@H]([C@@H](C)OC(=O)COCCOC)N3CCS(=O)(=O)CC3)CC[C@]3(C)[C@H](CC[C@@H]4[C@@]5(C)CC[C@H](OC(=O)[C@H]6C[C@@H](C(=O)O)C6(C)C)C(C)(C)[C@@H]5CC[C@]43C)[C@@H]12 ; strain: NL4-3 ; cell line: MT-4 ; changes: V7A ; value: <0.05 µM
CC(C)C1=C2[C@H]3CC[C@@H]4[C@@]5(C)CC[C@H](OC(=O)[C@H]6C[C@@H](C(=O)O)C6(C)C)C(C)(C)[C@@H]5CC[C@@]4(C)[C@]3(C)CC[C@@]2(CCN[C@@H](C)c2ccccc2)CC1=O ; strain: 92HT599 ; cell line: MT-2 ; value: <1 µM
CC(C)C1=C2[C@H]3CC[C@@H]4[C@@]5(C)CC[C@H](OC(=O)[C@H]6C[C@@H](C(=O)O)C6(C)C)C(C)(C)[C@@H]5CC[C@@]4(C)[C@]3(C)CC[C@@]2(NC(=O)C(C)(C)NC(=O)c2ccc(Cl)cc2OC2CCNCC2)CC1=O ; strain: 92HT599 ; cell line: MT-2 ; value: <0.003 µM
CCC1=C(C(=O)OCC2CCCCC2)[C@H](c2ccc([N+](=O)[O-])cc2)NC(=O)N1 ; cell line: CEM ; value: ≤1 µM
C=C(C)[C@@H]1CC[C@]2(NC[C@H]([C@@H](C)O)N3CCS(=O)(=O)CC3)CC[C@]3(C)[C@H](CC[C@@H]4[C@@]5(C)CC[C@H](OC(=O)C6CC(C(=O)O)C6(C)C)C(C)(C)[C@@H]5CC[C@]43C)[C@@H]12 ; strain: 92HT599 ; cell line: MT-2 ; value: <0.01 µM
CC(C)C1=C2[C@H]3CC[C@@H]4[C@@]5(C)CC[C@H](OC(=O)[C@H]6C[C@@H](C(=O)O)C6(C)C)C(C)(C)[C@@H]5CC[C@@]4(C)[C@]3(C)CC[C@@]2(NC(=O)C(C)(C)NC(=O)c2ccc(N3CCS(=O)(=O)CC3)nc2)CC1=O ; strain: 92HT599 ; cell line: MT-2 ; value: <0.003 µM
CC(C)C1=C2[C@H]3CC[C@@H]4[C@@]5(C)CC[C@H](OC(=O)[C@H]6C[C@@H](C(=O)O)C6(C)C)C(C)(C)[C@@H]5CC[C@@]4(C)[C@]3(C)CC[C@@]2(CC(=O)NC[C@@H]2CCCN2)CC1=O ; strain: 92HT599 ; cell line: MT-2 ; value: <1 µM
CCCCCCCCCC(=O)O[C@@]12[C@H](O)[C@@H](C)[C@@]3(O)[C@@H](C=C(CO)C[C@]4(O)C(=O)C(C)=C[C@@H]34)[C@@H]1C2(C)C ; strain: IIIB ; cell line: C8166 ; value: 0.5635 µM
CC(C)C1=C2[C@H]3CC[C@@H]4[C@@]5(C)CC[C@H](OC(=O)[C@H]6C[C@@H](C(=O)O)C6(C)C)C(C)(C)[C@@H]5CC[C@@]4(C)[C@]3(C)CC[C@@]2(NC(=O)C(C)(C)NC(=O)c2ccc(Cl)cc2OCCN2CCOCC2)CC1=O ; strain: 92HT599 ; cell line: MT-2 ; value: <0.003 µM
COc1cnc(-n2cnc(C)n2)c2[nH]cc(C(=O)C(=O)N3CCN(C(=O)c4ccccc4)CC3)c12 ; strain: MN ; cell line: MT-2 ; value: 0.0148 µM
CC1([C@@H]2CC[C@]3(NCC(C)(C)N4CCS(=O)(=O)CC4)CC[C@]4(C)[C@H](CC[C@@H]5[C@@]6(C)CC[C@H](OC(=O)[C@H]7C[C@@H](C(=O)O)C7(C)C)C(C)(C)[C@@H]6CC[C@]54C)[C@@H]23)CC1 ; strain: NL4-3 ; cell line: MT-4 ; changes: V7A ; value: >0.1 µM
CCC1=C(C(=O)CCC2CCCCCC2)[C@H](c2ccc(O)c(Cl)c2)NC(=O)N1 ; cell line: CEM ; value: ≤1 µM
COP(=O)(c1cc(C)cc(CCC#N)c1)c1c(C(N)=O)[nH]c2ccc(Cl)cc12 ; strain: NL4-3 ; cell line: MT-4 ; changes: K103N/Y181C ; value: 0.0065 µM
Cc1cn([C@H]2C[C@H](N=[N+]=[N-])[C@@H](CO)O2)c(=O)[nH]c1=O ; strain: IIIB ; cell line: C8166 ; value: 0.0297 µg/mL
CCC1=C(C(=O)c2ccc(C)cc2)C(c2cccc(O)c2)NC(=O)N1 ; cell line: CEM ; value: >5 µM
CC(C)S(=O)(=O)N1CCN([C@@H](C)CN[C@]23CC[C@@H](C4(C)CC4)[C@@H]2[C@H]2CC[C@@H]4[C@@]5(C)CC[C@H](OC(=O)[C@H]6C[C@@H](C(=O)O)C6(C)C)C(C)(C)[C@@H]5CC[C@@]4(C)[C@]2(C)CC3)CC1 ; strain: 92HT599 ; cell line: MT-2 ; value: <0.01 µM
CCC1=C(C(=O)OCC2CCCCC2)[C@H](c2ccc(OC(=O)c3ccccc3)cc2)NC(=O)N1 ; cell line: CEM ; value: ≤1 µM
CC(C)C1=C2[C@H]3CC[C@@H]4[C@@]5(C)CC[C@H](OC(=O)[C@H]6C[C@@H](C(=O)O)C6(C)C)C(C)(C)[C@@H]5CC[C@@]4(C)[C@]3(C)CC[C@@]2([C@@H](O)CNCc2nc3ccccc3[nH]2)CC1=O ; strain: 92HT599 ; cell line: MT-2 ; value: <1 µM
CC1=C[C@H]2[C@@]3(O)[C@H](C)[C@@H](O)[C@]4(OC(=O)CCc5ccccc5)[C@H]([C@@H]3C=C(CO)C[C@]2(O)C1=O)C4(C)C ; strain: IIIB ; cell line: C8166 ; value: 11.14 µM
CCC1=C(C(=O)OCC2CCCCC2)C(c2cc(O)c(O)c(Br)c2)NC(=O)N1 ; cell line: CEM ; value: ≤1 µM
CC(C)C1=C2[C@H]3CC[C@@H]4[C@@]5(C)CC[C@H](OC(=O)[C@H]6C[C@@H](C(=O)O)C6(C)C)C(C)(C)[C@@H]5CC[C@@]4(C)[C@]3(C)CC[C@@]2(CCNCc2ccccn2)CC1=O ; strain: 92HT599 ; cell line: MT-2 ; value: <1 µM
CC(C)[Si](OCCC1=C(C(=O)OCC2CCCCC2)C(c2cccc(O)c2)NC(=O)N1)(C(C)C)C(C)C ; cell line: CEM ; value: >5 µM
CC(C)OC(=O)OCOP(=O)(CO[C@H](C)Cn1cnc2c(N)ncnc21)OCOC(=O)OC(C)C ; strain: IIIB ; cell line: C8166 ; value: 0.00618 µM
CC1=C[C@H]2[C@@]3(O)[C@H](C)[C@@H](OC(=O)/C=C/c4ccccc4)[C@]4(OC(=O)/C=C/c5ccccc5)[C@H]([C@@H]3C=C(COC(=O)/C=C/c3ccccc3)C[C@]2(O)C1=O)C4(C)C ; strain: IIIB ; cell line: C8166 ; value: >200 µM
CCC1=C(C(=O)OCC2CCCCC2)[C@H](c2cccc(OC(=O)[C@H](C)NC(=O)OC(C)(C)C)c2)NC(=O)N1 ; cell line: CEM ; value: ≤1 µM
Cc1cc(C)cc(Cc2c(I)c(=O)[nH]c(=O)n2COCc2ccccc2)c1 ; strain: A17 ; cell line: MT-4 ; changes: K103N ; value: 0.151 µM
CCC1=C(c2nc(C3CCCCC3)cs2)C(c2ccc(C(F)(F)F)cc2)NC(=O)N1 ; cell line: CEM ; value: 1–5 µM
CC1=C[C@H]2[C@@]3(O)[C@H](C)[C@@H](OC(=O)CCCCCCCCCBr)[C@]4(OC(=O)CCCCCCCCCBr)[C@H]([C@@H]3C=C(CO)C[C@]2(O)C1=O)C4(C)C ; strain: IIIB ; cell line: C8166 ; value: 19.9 µM

A second listing of 3 rows from above:

SMILES,strain,cell line,changes,value
CCC1=C(C(=O)OCC2CCCCC2)[C@H](c2ccc(OC(=O)c3ccccc3)cc2)NC(=O)N1,,CEM,,≤1 µM
CCC1=C(C(=O)OCC2CCCCC2)[C@H](c2ccc([N+](=O)[O-])cc2)NC(=O)N1,,CEM,,≤1 µM
CC(C)S(=O)(=O)N1CCN([C@@H](C)CN[C@]23CC[C@@H](C4(C)CC4)[C@@H]2[C@H]2CC[C@@H]4[C@@]5(C)CC[C@H](OC(=O)[C@H]6C[C@@H](C(=O)O)C6(C)C)C(C)(C)[C@@H]5CC[C@@]4(C)[C@]2(C)CC3)CC1,92HT599,MT-2,,<0.01 µM